Some compounds share one wording; it may come from a single statement.
Assay: Bitter taste upon oral administration

Compound	bitter taste
CCC(=O)OC1CC(=O)OC(C)CC=CC=CC(OC(C)=O)C(C)CC(CC=O)C(OC2OC(C)C(OC3CC(C)(O)C(OC(=O)CC)C(C)O3)C(N(C)C)C2O)C1OC (centres unmarked) [9-mono-acetyl SF-837 substance, reference compound]	unpleasant long-lasting bitter taste
CCC(=O)OC1CC(=O)OC(C)CC=CC=CC(OC(C)=O)C(C)CC(CC=O)C(OC2OC(C)C(OC3CC(C)(OC(=O)CC)C(OC(C)=O)C(C)O3)C(N(C)C)C2O)C1OC (centres unmarked) [Compound No. 1]	substantially does not show any bitter taste
CCC(=O)OC1CC(=O)OC(C)CC=CC=CC(OC(C)=O)C(C)CC(CC=O)C(OC2OC(C)C(OC3CC(C)(OC(=O)CC)C(OC(=O)CC)C(C)O3)C(N(C)C)C2O)C1OC (centres unmarked) [Compound No. 6]	substantially does not have the bitter taste
CCC(=O)OC1CC(=O)OC(C)CC=CC=CC(OC(C)=O)C(C)CC(CC=O)C(OC2OC(C)C(OC3CC(C)(OC(C)=O)C(OC(=O)CC)C(C)O3)C(N(C)C)C2O)C1OC (centres unmarked) [Compound No. 2]	practically no bitter taste
CCC(=O)OC1CC(=O)OC(C)CC=CC=CC(OC(C)=O)C(C)CC(CC=O)C(OC2OC(C)C(OC3CC(C)(OC(=O)CC)C(OC(=O)CC(C)C)C(C)O3)C(N(C)C)C2O)C1OC (centres unmarked) [Compound No. 4]	substantially does not have any bitter taste
CCC(=O)OC1CC(=O)OC(C)CC=CC=CC(OC(C)=O)C(C)CC(CC=O)C(OC2OC(C)C(OC3CC(C)(O)C(OC(=O)CC)C(C)O3)C(N(C)C)C2OC(C)=O)C1OC (centres unmarked) [9,2'-di-acetyl SF-837 substance, reference compound]	unpleasant long-lasting bitter taste
CCC(=O)OC1C=CC=CCC(C)OC(=O)CC(OC(=O)CC)C(OC)C(OC2OC(C)C(OC3CC(C)(OC(=O)CC)C(OC(C)=O)C(C)O3)C(N(C)C)C2O)C(CC=O)CC1C (centres unmarked) [Compound No. 5]	substantially does not show any bitter taste
CCC(=O)OC1CC(=O)OC(C)CC=CC=CC(OC(C)=O)C(C)CC(CC=O)C(OC2OC(C)C(OC3CC(C)(OC(=O)CC)C(OC(=O)C(C)C)C(C)O3)C(N(C)C)C2O)C1OC (centres unmarked) [Compound No. 3]	substantially does not have any bitter taste

From patent US4017607A
